Measurements: patent US11542257B2, “Arylnaphthalene compounds as vacuolar-ATPase inhibitors and the use thereof” (priority 2018, dated 2023)

Tests used:
Ebolavirus (EBOV) = format: cell-based
Marburg virus (MARV) = format: cell-based

| Compound | fold improvement in potency compared to diphyllin (EBOV infection) (Ebolavirus (EBOV)) | fold decrease in potency against MARV compared to EBOV infection (Marburg virus (MARV)) |
| --- | --- | --- |
| CCOc1c2c(c(-c3ccc4c(c3)OCO4)c3cc(OC)c(OC)cc13)C(=O)OC2 [Compound 2c, 9-(benzo[d][1,3]dioxol-5-yl)-4-ethoxy-6,7-dimethoxynaphtho[2,3-c]furan-1(3H)-one] | 10 fold |  |
| COc1cc2c(OCCCN3CCOCC3)c3c(c(-c4ccc5c(c4)OCO5)c2cc1OC)C(=O)OC3 [Compound 2g, 9-(benzo[d][1,3]dioxol-5-yl)-6,7-dimethoxy-4-(3-morpholinopropoxy)naphtho[2,3-c]furan-1(3H)-one] |  | 2 fold |
